Source: PubChem BioAssay AID1224833 (University of Georgia, 2016)

Screen: 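Human genes whose knock-down alters rotavirus replication in monkey cells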 (primary screen)
System: monkey MA104 kidney cells
Reagents: siRNA pool against human genes, 50 nM
Duration: 48 h knock-down before infection; read 24 h after infection
Conditions: infection with rotavirus strain RV3 two days after transfection; infectious dose for this stage not given
Measured: 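z-score of rotavirus antigen signal per well, from a fluorescent immunoassay, relative to non-targeting control wells on the same plate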
Reading the numbers: z-score vs non-targeting control: higher = more rotavirus replication than with non-targeting control
Rule for the call: In these data the active calls have z-score vs non-targeting control at about -1 or lower, or at about 1 or higher
Meaning of the calls: active = z-score beyond 1 either way; inactive = z-score within 1 of zero
This is one part, drawn at random, of about 12,000 reagents tested. About 5,600 of all reagents (46%) count as active. 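Active calls cover z-scores past 1 in both directions, so they include lowered as well as raised rotavirus replication.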

gene	z-score vs non-targeting control	Call
SERTAD4	-1.15	active
TNFAIP6	-0.527	inactive
TTC39C	0.259	inactive
OR5P3	-1.17	active
EFHB	1.26	active
PSMD5	0.0958	inactive
BORCS7	-0.467	inactive
KCTD11	-0.748	inactive
SACK1C	0.209	inactive
FRG2	0.149	inactive
TMEM18	0.12	inactive
SACK1G	0.617	inactive
SYN3	-0.597	inactive
TIGIT	-1.42	active
IRX1	-1.41	active
CCL4L2	0.839	inactive
SLC16A4	1.53	active
PCDHA4	-0.427	inactive
ZNF518B	0.588	inactive
HLA-DQA2	0.185	inactive
DMP1	-0.47	inactive
ADCY4	-0.774	inactive
SLC39A2	1.08	active
ZNF691	2.02	active
OR5K1	-2.02	active
GLYAT	-0.785	inactive
FAM91A1	0.512	inactive
PCDH10	0.0187	inactive
CALR3	-0.0622	inactive
LRRC70	0.523	inactive
SAMD12	1.37	active
TTC5	1.18	active
NR2C2	-1.9	active
SH3GL2	-1.19	active
DMBX1	0.804	inactive
NUCB1	-1.04	active
TAS2R16	0.136	inactive
RASL11B	-0.724	inactive
RABAC1	-0.0709	inactive
ZFY	-0.521	inactive
SRGAP2	1.85	active
MEIS3	-1.3	active
CSF2	2.3	active
ADA	-1.89	active
ARL3	-0.191	inactive

Part of the list above, reformatted:
| gene | z-score vs non-targeting control | Call |
| --- | --- | --- |
| ZNF691 | 2.02 | active |
| OR5K1 | -2.02 | active |
| GLYAT | -0.785 | inactive |
| FAM91A1 | 0.512 | inactive |
| PCDH10 | 0.0187 | inactive |
| CALR3 | -0.0622 | inactive |
| LRRC70 | 0.523 | inactive |
